# In patent US20160122388A1, “Conotoxin peptides, pharmaceutical compositions and uses thereof” (published 2016):
# Molecular target: human α9α10 nAChR with Ile56 replaced by Thr in the α9 subunit (human), Q9UGM1
# Experiment: cell-based or functional assay
binder,measurement,value
GCCSDPRCRYRCR (modifications not checked) [α-Conotoxin peptide RgIA],increase in RgIA potency,2 log
